Assay results published in publication PMC4963854 (Toxins, 2016).

Assay: general procedure: Fmoc solid-phase peptide synthesis; 2-chloro-2-trityl chloride resin (f = 1.18 mmol/g); HOBt and DIC
Settings: whole synthesis, HPLC, UV 210 nm, scale of the general procedure 200 mg resin

Row | Substance | final HPLC purity [%]
1 | Fluorescein‐DNLNHEELIQ | 100
2 | Ac-ERYKTMYADD | 100
3 | Fluorescein‐DNLEE | 100
4 | Fluorescein‐NDNLEE | 100
5 | Fluorescein‐LNANHEELIQ | 100

Same assay, conditions: whole synthesis, UV, scale of the general procedure 200 mg resin

Row | Substance | final HPLC purity [%]
6 | Fluo-HGTIERYKTMYADD | 100
7 | Ac-LRSAEFEETQ | 100
8 | Ac-LNDNHEELIQ | 100
9 | Ac-TRKQFENRLNDNHEELIQ | 100
10 | Fluo-INSYHGTIERYKTMYADD | 100
11 | Ac-GDTSLRSAEFEETQ | 100
12 | Fluo-FENRLNDNHEELIQ | 100
13 | Fluo-GSGDTSLRSAEFEETQ | 100
14 | Ac-FENRLNDNHEELIQ | 100
15 | Fluo-ERYKTMYADD | 100
16 | Fluo-LRSAEFEETQ | 100
17 | Fluo-TRKQFENRLNDNHEELIQ | 100
18 | Ac-GSGDTSLRSAEFEETQ | 100
19 | Fluo-GDTSLRSAEFEETQ | 100
20 | Fluo-LNDNHEELIQ | 100

Same assay, conditions: whole synthesis, scale of the general procedure 200 mg resin

Row | Substance | isolated yield [%]
21 | Fluorescein‐DNLNHEELIQ | 45
22 | Fluorescein‐LNANHEELIQ | 65

The same purity stands for every peptide and may come from a single statement.
